Source: PubChem BioAssay AID504761 (Drosophila RNAi Screening Center, 2011)
Screen: 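Insect host genes that dengue virus relies on to spread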 (primary screen). Cell system: D.Mel-2 cells from Drosophila. Knock-down reagent: long dsRNA against Drosophila genes. Treatment: infection with dengue virus type 2; dose and infection time not stated. Measurement: 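Per well on two replicate plates, imaging gave the percent of cells positive for viral envelope protein, ranked by infection, and a nuclear count of cells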. Scale: infection score: higher = more virus-infected cells. Call rule: 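Very low infection ranking in both replicate wells (chance probability at most 0.065), then a retest showing infection dropped 1.5-fold or more at p below 0.05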. Calls: active = confirmed: knock-down lowers infection; inactive = not picked or not confirmed.
The screen tested about 22,000 reagents; this is an unselected part of those with a known target gene and a result. Of all reagents, 116 (0.52%) got an active call. 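Calls depend on retest data that are not deposited; infection was ranked per plate without normalising between plates; the unit of the infection score is not given.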 Entries without a mark were called inactive. Further read-outs or replicates are left out here. No sequences are given here. Not stated in the record: the amount of reagent, the time to read-out.

With knock-down of Picot [DRSC07508] the results were infection score, replicate 1 = 16.8. Picot [DRSC24256] showed infection score, replicate 1 = 14.5. With knock-down of CG3918 [DRSC23159], the screen gave infection score, replicate 1 = 3.1. With knock-down of CG3918 [DRSC28834], the screen gave infection score, replicate 1 = 23.4. orion [DRSC18213] scored infection score, replicate 1 = 38.3. For orion [DRSC18214], the entry reads infection score, replicate 1 = 2.21.

Acbp3 (Acyl-CoA binding protein 3) [DRSC11022] gave infection score, replicate 1 = 5.03. For Acbp3 (Acyl-CoA binding protein 3) [DRSC25356], the values are infection score, replicate 1 = 1.43. CG13527 [DRSC04169] scored infection score, replicate 1 = 12.2.

Records above whose gene name begins with A or a:
Acbp3 (Acyl-CoA binding protein 3) [DRSC11022] | infection score, replicate 1 = 5.03
Acbp3 (Acyl-CoA binding protein 3) [DRSC25356] | infection score, replicate 1 = 1.43

Continued.
With knock-down of Or2a (Odorant receptor 2a) [DRSC18690], the screen gave infection score, replicate 1 = 2.7. DptB (Diptericin B) [DRSC06001] scored infection score, replicate 1 = 4.14. Depletion of CG11147 [DRSC02129] resulted in: infection score, replicate 1 = 11. CheB93a (Chemosensory protein B 93a) [DRSC15044] gave infection score, replicate 1 = 2.03. After knock-down of CG16790 [DRSC15156] the results were infection score, replicate 1 = 9.78. For CG5011 [DRSC00039], the entry reads infection score, replicate 1 = 3.05.

After knock-down of CG5011 [DRSC00674], the screen gave infection score, replicate 1 = 3.8. With knock-down of CG5011 [DRSC29184] the results were infection score, replicate 1 = 11.3. With knock-down of Sh (Shaker) [DRSC19214], the screen gave infection score, replicate 1 = 0.34. Against Sh (Shaker) [DRSC19785], the entry reads infection score, replicate 1 = 1.23. With knock-down of Sh (Shaker) [DRSC20055] the results were infection score, replicate 1 = 12.3. Against Sh (Shaker) [DRSC25790], the values are infection score, replicate 1 = 8.34.

Silencing of Sh (Shaker) [DRSC25811] gave: infection score, replicate 1 = 4.38. HP1e (Heterochromatin Protein 1e) [DRSC16379] showed infection score, replicate 1 = 3.15. Depletion of pio (piopio) [DRSC04386] gave: infection score, replicate 1 = 26.1. With knock-down of pio (piopio) [DRSC29371], the screen gave infection score, replicate 1 = 9.73. Depletion of CG13113 [DRSC02211] gave: infection score, replicate 1 = 2.51. With knock-down of Nup154 (Nucleoporin 154kD) [DRSC03384] the results were infection score, replicate 1 = 46.1.

With knock-down of Nup154 (Nucleoporin 154kD) [DRSC26396] the results were infection score, replicate 1 = 47.7.
